Measured values from several laboratories, pooled; numbers as filed in NIAID ChemDB.

Common to all: tests in culture; organism: Mycobacterium tuberculosis

Lines come from different laboratories, so protocols vary. ECn is the concentration giving n% inhibition of infection, replication or growth. A number after MIC or MFC names an inhibition level or a share of isolates. Inhibition is in % at the dose shown (toxicity tests: loss of growth or viability). Two numbers with a dash give a range or band. MIC bound: limit read from a one-dose screen. Blank or dashed fields: not listed here.

smiles,strain,method,measure,dose,setting,value
Cn1c2ccccc2c2cc(C=NNc3nc(-c4ccc(Cl)cc4)cs3)ccc21,H37Rv,fluorescence,EC50,,,>200 µM
O=C(Cc1cccs1)N/N=C/c1cccc([N+](=O)[O-])c1,H37Rv (ATCC 27294),resazurin,MIC,,,>100 µg/mL
NNC(=O)c1ccncc1,H37Rv,,MIC,,,0.05 µg/mL
CCN1C(=O)C(=O)N(CC)C1=S,B814,,MIC,,,100 µg/mL
CC(=O)NC[C@H]1CN(c2ccc(N3CCS(=O)(=O)CC3)c(F)c2)C(=O)O1,91-2225,,MIC,,,0.5 µg/mL
CO[C@H]1/C=C/O[C@@]2(C)Oc3c(C)c(O)c4c(O)c(c(/C=N/NCCO)c(O)c4c3C2=O)NC(=O)/C(C)=C\C=C\[C@H](C)[C@H](O)[C@@H](C)[C@@H](O)[C@@H](C)[C@H](OC(C)=O)[C@@H]1C,H37Rv,,MIC,,,1 µg/mL
CSc1ccc(-c2nn(-c3ccccc3)cc2C2CC(c3ccccc3)=NN2C(C)=O)cc1,H37Rv,BACTEC,inhibition,6.25 µg/mL,,35%
COc1cc(C)cc(/C=N/NC(=O)Cc2cccs2)c1O,H37Rv (ATCC 27294),resazurin,MIC,,,344.4 µM
CC(C)/C=C/C[C@H]1C(=O)O[C@H]2C[C@]3(C)C4=C[C@@H](O)[C@H]5C(C)(C)C(=O)CC[C@]5(C)C4CC[C@@]3(C)[C@@H]21,H37Rv,,MIC,,,4 µg/mL
Cc1cc(N)c(C(=O)NN)cc1C,H37Rv,BACTEC,MIC bound,,,>12.5 µg/mL
COc1ccc(-n2[nH]c(C)c(N=Nc3ccc(-c4n[nH]c(=S)o4)cc3)c2=O)cc1,H37Rv,,MIC,,,>6.25 µg/mL
CO[C@H]1/C=C/O[C@@]2(C)Oc3c(C)c(O)c4c(O)c(c(C=Nc5ccc(Cl)cc5)c(O)c4c3C2=O)NC(=O)/C(C)=C\C=C\[C@H](C)[C@H](O)[C@@H](C)[C@@H](O)[C@@H](C)[C@H](OC(C)=O)[C@@H]1C,H37Rv,,MIC,,,>5 µg/mL
CC(C)/C=C/C[C@H]1C(=O)O[C@H]2C[C@]3(C)C4=CC[C@H]5C(C)(C)C(=O)CC[C@]5(C)C4C[C@@H](O)[C@@]3(C)[C@@H]21,H37Rv,,MIC,,,16 µg/mL
O=C(NC1CCC2(CCCCC2)CC1)c1cc2c(Cl)cc(Cl)cc2[nH]1,H37Rv,resazurin / fluorescence,MIC,,,0.003 µM
N[C@@H]1CN(c2c(F)cc3c(=O)c(C(=O)O)cn([C@@H]4C[C@@H]4F)c3c2Cl)CC12CC2,23 strains (rifampin- isoniazid-susceptible),,MIC50,,,0.1 µg/mL
CCOC(=O)/C(N=Nc1ccc(C(=O)N/N=C/c2ccc([N+](=O)[O-])o2)cc1)=C(\C)O,H37Rv,,EC50,,,<12.5 µg/mL
CC(C)N=c1cc2n(-c3ccc(Cl)cc3)c3ccccc3nc-2cc1Nc1ccc(Cl)cc1,H37Rv,resazurin / fluorescence,MIC,,,0.5 µg/mL
CO[C@H]1/C=C/O[C@@]2(C)Oc3c(C)c(O)c4c(O)c(c(C=Nc5ccccc5C)c(O)c4c3C2=O)NC(=O)/C(C)=C\C=C\[C@H](C)[C@H](O)[C@@H](C)[C@@H](O)[C@@H](C)[C@H](OC(C)=O)[C@@H]1C,H37Rv,,MIC,,,5 µg/mL
C[C@@H]1C(NC(=O)c2cc3c(Cl)cc(Cl)cc3[nH]2)C[C@H]2C[C@@H]1C2(C)C,V2475,resazurin / fluorescence,MIC,,multidrug-resistant,0.0625 µM
CSc1ccc(-c2nn(-c3ccccc3)cc2C2CC(c3cccc([N+](=O)[O-])c3)=NN2C(C)=O)cc1,H37Rv,BACTEC,inhibition,6.25 µg/mL,,10%
CC1(C)N=C([Se])NC1=O,B814,,MIC,,,0.6 µg/mL
CC(=O)OCC1=C(C(=O)O)N2C(=O)[C@@H](NC(=O)CSc3ccncc3)[C@H]2SC1,16 strains,,MIC,,,100–400 µg/mL
Cc1cc(=O)oc2cc(OC(=O)CNC3N=C(c4ccc(F)cc4)C=C(c4ccccc4)S3)c([N+](=O)[O-])cc12,H37Rv,broth dilution,MIC99,,,100 µg/mL
O=S1c2ccccc2S(=O)c2ccccc21,H37Rv,BACTEC,MIC,,,≥12.5 µg/mL
CC[C@@H](CO)NCCN[C@@H](CC)CO,H37Rv,,MIC,,,3.8 µg/mL
CO[C@H]1/C=C/O[C@@]2(C)Oc3c(C)c(O)c4c(O)c(c(/C=N/N(C)C)c(O)c4c3C2=O)NC(=O)/C(C)=C\C=C\[C@H](C)[C@H](O)[C@@H](C)[C@@H](O)[C@@H](C)[C@H](OC(C)=O)[C@@H]1C,H37Rv,,MIC,,,0.05 µg/mL
Cc1cc2nc3ccc(N=Nc4ccc(N(C)C)cc4)cc3n(-c3ccccc3)c-2cc1=N,PZA-R,,MIC,,,0.2 µg/mL
CCC(=O)O[C@H]1C[C@H]([C@H](C)CC/C=C(\C)C(=O)O)[C@@]2(C)CC=C3C(=CC[C@H]4C(C)(C)[C@@H](OC(C)=O)CC[C@]34C)[C@]12C,H37Rv,resazurin,MIC90,,,0.3125 µg/mL
COC1=CC(=O)C(C2CC(=O)c3c(O)cc(O)cc3O2)=CC1=O,H37Rv,BACTEC,inhibition,12.5 µg/mL,,-2%
Cc1cc(=O)oc2cc(OC(=O)CNC3N=C(c4ccc(F)cc4)C=C(c4ccc(O)cc4)S3)c([N+](=O)[O-])cc12,H37Rv,broth dilution,MIC98,,,1000 µg/mL
C[C@@H]1CC[C@]2(C(=O)O)CC[C@]3(C)C(=CC[C@@H]4[C@@]5(C)C[C@@H](O)[C@H](O)C(C)(C)[C@@H]5CC[C@]43C)[C@@H]2[C@]1(C)O,H37Rv,,MIC,,,32 µM
Cn1c2ccccc2c2cc(C=NNc3nc(-c4cc5cc(Br)ccc5oc4=O)cs3)ccc21,H37Rv,fluorescence,EC50,,,>200 µM
CN(C)CCNC(=O)c1cccc2[nH]c(-c3ccncc3)nc12,H37Rv,BACTEC,MIC bound,,,>6.25 µg/mL
C[C@@H]1[C@@H](NC(=O)c2cc3c(F)cc(F)cc3[nH]2)C[C@H]2C[C@@H]1C2(C)C,KZN494,resazurin / fluorescence,MIC,,multidrug-resistant,0.0039 µM
Cn1c2ccccc2c2cc(C=NNc3nc(-c4ccccc4)cs3)ccc21,H37Rv,fluorescence,MIC,,,32 µM
NNC(=O)c1ccncc1,R37RV,,MIC,,,0.1 µg/mL
CCCC(=O)O[C@H]1CC[C@]2(C)C3=CC[C@]4(C)[C@@H]([C@H](C)CC/C=C(\C)C(=O)O)C[C@H](OC(=O)CCC)[C@@]4(C)C3=CC[C@H]2C1(C)C,H37Ra,GFP,MIC90,,,>50 µg/mL
Cc1ccc(C2=CC(c3ccc(F)cc3)=NC(NCC(=O)Oc3cc4oc(=O)cc(C)c4cc3[N+](=O)[O-])S2)cc1,H37Rv,broth dilution,MIC99,,,500 µg/mL
CCC[CH2][Sn]1([CH2]CCC)[O]C(=O)CN=C(C)c2ccccc2[O]1,KM-R,,MIC,,,6.3 µg/mL
CC(=O)O[C@H]1C[C@H]([C@H](C)CC/C=C(\C)C(=O)O)[C@@]2(C)CC=C3C(=CC[C@H]4C(C)(C)[C@@H](OC(=O)C(C)C)CC[C@]34C)[C@]12C,H37Ra,GFP,MIC90,,,0.781 µg/mL
CCOC(=O)/C(N=Nc1ccc(-c2n[nH]c(=S)n2C)cc1)=C(\C)O,H37Rv,,MIC,,,>6.25 µg/mL
CN(C)Cc1ccccc1,H37Rv,,MIC,,,>1848 µM
NNC(=O)c1cc2c(cn1)[nH]c1ccccc12,H37Rv,BACTEC,inhibition,12.5 µg/mL,,-5%
Cn1c2ccccc2c2cc(C=NNc3nc(-c4cccc(F)c4)cs3)ccc21,H37Rv,fluorescence,EC90,,,>200 µM
CSc1ccc(-c2nn(-c3ccccc3)cc2C2CC(c3ccc(Cl)cc3)=NN2)cc1,H37Rv,BACTEC,inhibition,6.25 µg/mL,,36%
Clc1ccc(Nc2cc3nc4ccccc4n(-c4ccc(Cl)cc4)c-3cc2=NC2CCCC2)cc1,H37Ra,GFP,MIC90,,,0.938 µg/mL
Nc1nc(-c2cccc([N+](=O)[O-])c2)c(N=Nc2ccc([N+](=O)[O-])cc2)s1,H37Rv,BACTEC,MIC bound,,,>12.5 µg/mL
O=C(Cc1cccs1)N/N=C/c1ncc[nH]1,H37Rv (ATCC 27294),resazurin,MIC,,,>100 µg/mL
CCCCNCC(=O)Nc1ccc(C)c(Cl)c1,H37Rv,BACTEC,MIC bound,,,>12.5 µg/mL
CC1(C)C(=O)CC[C@]23C[C@]24CC[C@]2(C)[C@@H](C(C)(C)CCC=O)CC[C@@]2(C)C4CCC13,H37Rv,,MIC,,,>128 µg/mL
COc1cccc2c1C(=O)C1=C(C2=O)c2c(O)cc(CO)cc2C(O)C1O,H37Rv,BACTEC,MIC bound,,,>12.5 µg/mL
Cn1ccn(C)c1=[Se],B814,,MIC,,,>100 µg/mL
O=C1C2=C(C(=O)c3ccccc31)C(O)(S(=O)(=O)[O-])C(O)(S(=O)(=O)[O-])C1N=CC=CC21.[Na+].[Na+],H37Rv,BACTEC,inhibition,12.5 µg/mL,,7%
CCN(CC)/N=C/c1c2c(O)c3c(O)c(C)c4c(c3c1O)C(=O)[C@@](C)(O/C=C/[C@H](OC)[C@@H](C)[C@@H](OC(C)=O)[C@H](C)[C@H](O)[C@H](C)[C@@H](O)[C@@H](C)/C=C/C=C(/C)C(=O)N2)O4,H37Rv,,MIC,,,0.02 µg/mL
Cc1ccc(NC(=O)c2cc(S(=O)(=O)n3cc[nH]c3=O)c(S)cc2Cl)cc1,H37Rv,resazurin,inhibition,6.25 µg/mL,,-9%
CSc1ccc(-c2nn(-c3ccccc3)cc2C2CC(c3ccc(Cl)cc3)=NN2C(C)=O)cc1,H37Rv,BACTEC,inhibition,6.25 µg/mL,,42%
Nc1ccc(/C(=N/NC(=O)C(=O)N/N=C(\c2ccccc2)c2ccc(N)cc2)c2ccccc2)cc1,H37Rv,BACTEC,MIC,,,≥12.5 µg/mL
Cn1c2ccccc2c2cc(C=NNc3nc(-c4ccc(O)cc4)cs3)ccc21,H37Rv,fluorescence,MIC,,,37 µM
NNc1n[nH]c(=O)c2cnccc12,H37Rv,BACTEC,MIC bound,,,>12.5 µg/mL
O=C(Cc1cccs1)N/N=C/c1occc1[N+](=O)[O-],H37Rv (ATCC 27294),resazurin,MIC,,,9 µM
CCC(=O)O[C@H]1CC[C@]2(C)C3=CC[C@]4(C)[C@@H]([C@H](C)CC/C=C(\C)C(=O)O)C[C@H](OC(C)=O)[C@@]4(C)C3=CC[C@H]2C1(C)C,H37Ra,GFP,MIC90,,,0.391 µg/mL
COc1cccc2c1C(=O)c1c(O)c3c(c(O)c1C2=O)C[C@@](O)(/C(C)=N/NC(=O)CO)CC3OC1CC(N)C(O)C(C)O1.Cl,ETA-R,,MIC,,,12.5 µg/mL
Cc1cc(=O)oc2cc(OC(=O)CNC3N=C(c4ccc(F)cc4)C=C(c4ccc(Cl)cc4)S3)c([N+](=O)[O-])cc12,H37Rv,broth dilution,MIC98,,,500 µg/mL
CSc1ccc(-c2nn(-c3ccccc3)cc2C2CC(c3ccc(Br)cc3)=NN2C(C)=O)cc1,H37Rv,BACTEC,inhibition,6.25 µg/mL,,36%
C=C1C(=O)O[C@@H]2C[C@@]3(C)CCC[C@H](C)[C@@]34O[C@H]4[C@H]12,H37Rv,,MIC,,,8 µg/mL
Cc1ccc(C)c(NCC(=O)NN)c1,H37Rv,BACTEC,inhibition,12.5 µg/mL,,-3%
Cc1[nH]n(-c2ccccc2)c(=O)c1N=Nc1ccc(-c2n[nH]c(=S)n2C)cc1,H37Rv,,MIC,,,>6.25 µg/mL
COc1ccc2nccc(NCCCN3CCN(CCCNc4ccnc5ccc(OC)cc45)CC3)c2c1.Cl.Cl.Cl.Cl,H37Rv,BACTEC,MIC bound,,,>12.5 µg/mL
CSc1ccc(-c2nn(-c3ccccc3)cc2C2CC(c3ccc(N)cc3)=NN2C(C)=O)cc1,H37Rv,BACTEC,inhibition,6.25 µg/mL,,56%
CC1=C\[C@H](O)CC(=O)Cc2nc(co2)C(=O)N2CCC=C2C(=O)O[C@@H](C(C)C)[C@@H](C)/C=C/C(=O)NC\C=C\1,H37Rv,BACTEC,MIC,,,≥12.8 µg/mL
CN1C(=O)C(=O)N(C)C1=S,B814,,MIC,,,20 µg/mL
O=C(Cc1cccs1)N/N=C/c1cccc(F)c1,H37Rv (ATCC 27294),resazurin,MIC,,,>100 µg/mL
C=C1C(=O)O[C@H]2[C@H]1CC/C(C)=C/CC[C@@]1(C)O[C@@H]21,H37Rv,BACTEC,MIC bound,,,>12.8 µg/mL
O=C(Cc1cccs1)N/N=C/c1ccccc1[N+](=O)[O-],H37Rv (ATCC 27294),resazurin,MIC,,,>100 µg/mL
Cc1ccc(C)c(NC(=O)C(=O)C2C(=O)N(c3ccccc3)N=C2N)c1,H37Rv,resazurin,MIC bound,,,>6.25 µg/mL
C[C@H]1CCC[C@]2(C)C[C@H]3OC(=O)C(O)(CO)[C@H]3C=C12,H37Rv,,MIC,,,>128 µg/mL

For reference, 6 entries again:

smiles | strain | method | measure | dose | setting | value
CCOC(=O)/C(N=Nc1ccc(-c2n[nH]c(=S)n2C)cc1)=C(\C)O | H37Rv |  | MIC |  |  | >6.25 µg/mL
O=C(Cc1cccs1)N/N=C/c1ncc[nH]1 | H37Rv (ATCC 27294) | resazurin | MIC |  |  | >100 µg/mL
CSc1ccc(-c2nn(-c3ccccc3)cc2C2CC(c3ccccc3)=NN2C(C)=O)cc1 | H37Rv | BACTEC | inhibition | 6.25 µg/mL |  | 35%
COc1cc(C)cc(/C=N/NC(=O)Cc2cccs2)c1O | H37Rv (ATCC 27294) | resazurin | MIC |  |  | 344.4 µM
CCN1C(=O)C(=O)N(CC)C1=S | B814 |  | MIC |  |  | 100 µg/mL
Cc1cc(=O)oc2cc(OC(=O)CNC3N=C(c4ccc(F)cc4)C=C(c4ccccc4)S3)c([N+](=O)[O-])cc12 | H37Rv | broth dilution | MIC99 |  |  | 100 µg/mL